Pooled drug test results. Numbers come from NIAID ChemDB, via PubChem.

Shared fields: whole-cell or culture tests; agent: HIV-1; cells: MT-4; endpoint: EC50

An empty or dashed field is not shown. ECn is the concentration giving n% inhibition of infection, replication or growth. Lines come from different laboratories, so protocols vary. Two numbers with a dash give a range or band.

structure,strain or isolate,mutations,method,conditions,value
Cc1cccc(C)c1CNC(=O)[C@H]1N(C(=O)[C@@H](O)C[C@@H](Cc2ccccc2)C(=O)N[C@H]2c3ccccc3OC[C@H]2O)COC1(C)C,NL4-3,-,p24,-,<0.5 µM
CC(C)(C)OC(=O)NCCNC(=O)c1cn([C@H]2CS[C@@H](COC(=O)c3ccccc3)O2)c(=O)[nH]c1=O,-,-,syncytia,-,>200 µM
OCCOCn1c(-c2ccccc2)c(Br)c(-c2ccccc2)c1-c1ccccc1,-,-,cytopathic effect / MTT,-,>15 µM
CN1c2ccccc2C2C1C=C(C#N)C(=O)N2c1ccc([N+](=O)[O-])cc1,B-HXB2,-,GFP / fluorescence,-,0.17 µM
Cc1cn([C@@H]2O[C@H](CO)[C@H](O)[C@H]2F)c(=O)[nH]c1=O,-,-,-,-,>500 µM
Clc1cccc(-c2nc(-c3nnc(C45CCC6CC(CC4C6)C5)o3)cs2)c1,IIIB,-,MTT,-,>125 µM
C=Cc1cc(N(CC)CC)nc(S(=O)(=O)Cc2ccc(OC)cc2)n1,NNRTI-resistant,RT-K103N,cytopathic effect / MTT,-,>42.9 µM
Cc1cnc(C(=O)NC(C)(C)C(=O)N[C@@]23CC[C@]4(C)[C@H](CC[C@@H]5[C@@]6(C)CC[C@H](OC(=O)C7C[C@@H](C(=O)O)C7(C)C)C(C)(C)[C@@H]6CC[C@]54C)C2=C(C(C)C)C(=O)C3)cn1,NL4-3,V7A,p24,-,<0.01 µM
CCCCCCCCCCc1nccn(COCCO)c1=O,IIIB,-,-,-,>100 µM
Cc1ccccc1-c1nc(-c2nnc(C34CCC5CC(CC3C5)C4)o2)cs1,IIIB,-,MTT,-,>10.5 µM
CC(C)c1c(Cc2ccccc2)n(CCCO)c(=O)[nH]c1=O,IIIB,-,cytopathic effect / MTT,-,4.2 µM
CC(C(=O)O)C(C)C(=O)N[C@@H](Cc1ccccc1)[C@H](O)C(=O)N1CSC(C)(C)[C@H]1C(=O)NC(C)(C)C,-,-,-,-,225 µM
CCOCn1c(Cc2cccc(Cc3[nH]c(=O)[nH]c(=O)c3CC)c2)c(CC)c(=O)[nH]c1=O,NNRTI-resistant,RT-Y181C,cytopathic effect / MTT,-,>100 µM
Cc1cn([C@H]2CS[C@H](CO)O2)c(=O)[nH]c1=O,-,-,syncytia,-,>200 µM
CCOC(=O)c1c(Cl)c(-c2ccccc2)n(COCCO)c1C,-,-,cytopathic effect / MTT,-,>111 µM
C=CCOCn1c(Cc2cccc(Cc3[nH]c(=O)[nH]c(=O)c3CC)c2)c(CC)c(=O)[nH]c1=O,NNRTI-resistant,RT-Y181C,cytopathic effect / MTT,-,>100 µM
Nc1ccn([C@H]2CC[C@@H](COCP(=O)([O-])[O-])O2)c(=O)n1,IIIB,-,cytopathic effect,-,500 µM
O=C(O)c1cccc(Cc2cccc(C(=O)O)c2O)c1O,IIIB,-,cytopathic effect / MTT,-,>40 µg/mL
CCOCn1c2c(c(=O)[nH]c1=O)CCC2c1ccccc1,IIIB,-,cytopathic effect / MTT,-,36 µM
C[C@]1(Cn2cnc3c(=O)[nH]c(N)nc32)[C@@H](COCP(=O)(O)O)C1(F)F,RF,-,-,-,26 µM
CCc1c(Cc2cccc(Cc3nc(SC)nc(OC)c3CC)c2)nc(SC)nc1OC,-,-,cytopathic effect / MTT,-,41 µM
O=[N+]([O-])c1cc(-c2ccccc2)n(COCCO)c1-c1ccccc1,-,-,cytopathic effect / MTT,-,>46 µM
CC(=O)NS(=O)(=O)c1c(C)cc(C)c(-c2c3nc(c(-c4c(C)cc(C)c(S(=O)(=O)NC(C)=O)c4C)c4ccc([nH]4)c(-c4c(C)cc(C)c(S(=O)(=O)NC(C)=O)c4C)c4nc(c(-c5c(C)cc(C)c(S(=O)(=O)NC(C)=O)c5C)c5ccc2[nH]5)C=C4)C=C3)c1C,IIIB,-,cytopathic effect / MTT,-,9 µg/mL
COc1cc(O)c2c(c1)C(=O)c1c(cc3c(c1O)-c1c(cc(C)c(C(=O)N[C@H](C)C(=O)O)c1O)[C@H](O[C@@H]1O[C@H](C)[C@H](O)[C@H](O[C@@H]4OC[C@@H](O)[C@H](O)[C@H]4O)[C@H]1O)[C@H]3O)C2=O,IIIB,-,antigen,-,<10 µg/mL
CCOC(=O)CCCCn1c(Cc2ccccc2)c(C(C)C)c(=O)[nH]c1=O,IIIB,-,cytopathic effect / MTT,-,38 µM
CCn1cc(C(=O)O)c(=O)c2cc(F)c(N3CCN(c4ccccc4OC)CC3)c(OC(F)F)c21,-,-,cytopathic effect,-,0.29 µM
Cc1cccc(C)c1CNC(=O)[C@H]1N(C(=O)[C@@H](O)C[C@@H](Cc2ccccc2)C(=O)N[C@H]2c3ccccc3OC[C@H]2O)COC12CCCC2,NL4-3,-,p24,-,<0.008 µM
CC(=O)c1c(C)nc(-c2ccccc2)nc1NC(=O)c1ccccc1,B-HXB2,-,GFP / fluorescence,-,0.24 µM
Cc1cn(C2OC(CO[Si](C)(C)C(C)(C)C)C3(OS(=O)(=O)C=C3N)C2O[Si](C)(C)C(C)(C)C)c(=O)n(CCCNC(=O)c2ccc(N=[N+]=[N-])cc2O)c1=O,IIIB,-,trypan blue,-,0.68 µM
Cc1cccc(C)c1CNC(=O)[C@@H]1CCCN1C(=O)[C@@H](O)C[C@@H](Cc1ccccc1)C(=O)N[C@H]1c2ccccc2OC[C@H]1O,NL4-3,-,p24,-,<1 µM
O=C(O)c1cc(Cc2cc(C(c3ccc(O)c(C(=O)O)c3)c3ccc(O)c(C(=O)O)c3)cc(C(=O)O)c2O)ccc1O,IIIB,-,cytopathic effect / MTT,-,2.8 µg/mL
Cc1cn(-c2ccc(C(=O)NC(C)(C)C(=O)N[C@@]34CC[C@]5(C)[C@H](CC[C@@H]6[C@@]7(C)CC[C@H](OC(=O)C8C[C@@H](C(=O)O)C8(C)C)C(C)(C)[C@@H]7CC[C@]65C)C3=C(C(C)C)C(=O)C4)cc2)cn1,NL4-3,-,p24,-,>0.01 µM
CCOC(=O)CCCCCn1c(Cc2ccccc2)c(C(C)C)c(=O)[nH]c1=O,IIIB,-,cytopathic effect / MTT,-,88 µM
COc1ccc(/C=C/CSc2nc(Cc3c(F)cccc3F)c(C)c(=O)[nH]2)cc1,NNRTI-resistant,RT-Y181C,cytopathic effect / MTT,-,>393 µM
CCc1c(Cc2cccc(Cc3nc(SC)n(C)c(=O)c3CC)c2)nc(SC)n(C)c1=O,RT-K103N+Y181C NNRTI-resistant,RT-K103N Y181C,cytopathic effect / MTT,-,>100 µM
CC(C)(C)OC(=O)NCCNC(=O)c1cn([C@@H]2CS[C@@H](COC(=O)c3ccccc3)O2)c(=O)[nH]c1=O,-,-,syncytia,-,>200 µM
C=CCOCn1c(Cc2cccc(Cc3c(CC)c(=O)[nH]c(=O)n3COCC=C)c2)c(CC)c(=O)[nH]c1=O,NNRTI-resistant,RT-Y181C,cytopathic effect / MTT,-,>100 µM
CCOC(=O)c1c([N+](=O)[O-])c(-c2ccccc2)n(COCCOC(C)=O)c1C,-,-,cytopathic effect / MTT,-,>169 µM
CC(C)C1=C2[C@H]3CC[C@@H]4[C@@]5(C)CC[C@H](OC(=O)C6C[C@@H](C(=O)O)C6(C)C)C(C)(C)[C@@H]5CC[C@@]4(C)[C@]3(C)CC[C@@]2(NC(=O)C(C)(C)NC(=O)c2ccc3nc(-c4cnccn4)[nH]c3c2)CC1=O,NL4-3,-,p24,-,<0.005 µM
CCc1c(Cc2c(Cl)cccc2Cl)nc(SC/C=C/c2ccc(C#N)cc2)[nH]c1=O,NNRTI-resistant,RT-Y188L,cytopathic effect / MTT,-,>34.82 µM
O=c1ccn([C@@H]2O[C@H](CO)C=C2Cl)c(=O)[nH]1,-,-,-,-,>500 µM
CC(C)c1c(Cc2ccccc2)n(CC(N)=O)c(=O)[nH]c1=O,IIIB,-,cytopathic effect / MTT,-,10 µM
C[C@]1(CO)[C@@H](Cn2cnc3c(=O)[nH]c(N)nc32)C1(F)F,RF,-,-,-,>100 µM
Nc1ccn([C@H]2CC[C@@H](CO)O2)c(=O)n1,IIIB,-,cytopathic effect / MTT,-,0.088 µM
Cc1ccc(C(=O)NC(C)(C)C(=O)N[C@@]23CC[C@]4(C)[C@H](CC[C@@H]5[C@@]6(C)CC[C@H](OC(=O)C7C[C@@H](C(=O)O)C7(C)C)C(C)(C)[C@@H]6CC[C@]54C)C2=C(C(C)C)C(=O)C3)cn1,NL4-3,V7A,p24,-,0.01001–0.05 µM
O=S(=O)(O)c1ccc(NS(=O)(=O)c2ccc(-c3ccc(S(=O)(=O)Nc4ccc(S(=O)(=O)O)c5cccc(S(=O)(=O)O)c45)cc3)cc2)c2c(S(=O)(=O)O)cccc12,IIIB,-,syncytia,-,80 µg/mL
CCCCCCCCCCc1nccnc1OCCCCO,IIIB,-,-,-,>100 µM
O=c1[nH]cnc2c1ncn2[C@H]1C[C@H](F)[C@@H](CO)O1,-,-,-,-,222 µM
CCOCn1c(Cc2ccccc2)c(C(C)C)c(=O)[nH]c1=O,-,-,cytopathic effect / MTT,-,0.03 µM
CC(C)C1=C2[C@H]3CC[C@@H]4[C@@]5(C)CC[C@H](OC(=O)C6C[C@@H](C(=O)O)C6(C)C)C(C)(C)[C@@H]5CC[C@@]4(C)[C@]3(C)CC[C@@]2(NC(=O)C(C)(C)NC(=O)c2cccnc2N2CCOCC2)CC1=O,NL4-3,-,p24,-,<0.005 µM
Clc1ccccc1-c1nc(-c2nnc(C34CCC5CC(CC3C5)C4)o2)cs1,IIIB,-,MTT,-,>125 µM
CC1(C)CC=C(c2cn(-c3nccc(C(=O)NC4CCC(N5CC6CCC(C5)O6)CC4)n3)c3ccc(F)c([C@H](OC(C)(C)C)C(=O)O)c23)CC1,NL4-3,G140S/Q148R,luminescence,-,0.0039 µM
Cc1cn(C2OC(CO[Si](C)(C)C(C)(C)C)C3(OS(=O)(=O)C=C3N)C2O[Si](C)(C)C(C)(C)C)c(=O)n(CCCNC(=O)c2ccc(C(=O)c3ccccc3)cc2)c1=O,IIIB,-,trypan blue,-,0.29 µM
CC(C)(C)OC(=O)N[C@@H](Cc1ccc(O)cc1)C(=O)N1CCC(=O)[C@H]1Sc1ccccc1,-,-,syncytia,-,0.1 µM
CCOC(=O)c1c(C)n([C@H]2C[C@@H]2c2ccccc2)c2ccc(OC(C)=O)c(O)c12,NL4-3,-,MTT,-,6.37 µM
CC(C)(C)C1=NC(c2ccccc2)(C(F)(F)F)NC(=O)N1,NL4-3,-,luciferase / reporter gene / single cycle,pseudotyped,0.0465 µM
O=c1[nH]c(=O)n([C@H]2CS[C@@H](CO)O2)cc1I,-,-,syncytia,-,>100 µM
Nc1ncnc2c1ncn2[C@@H]1O[C@H](CO)[C@](O)(C(F)(F)F)[C@H]1O,-,-,-,-,>100 µM
CC(C)(C)OC(=O)N[C@@H](Cc1ccc(O)cc1)C(=O)N1CCC(=O)[C@@H]1Sc1ccccc1,-,-,syncytia,-,50 µM
Cc1cn(C2OC(CO[Si](C)(C)C(C)(C)C)C3(OS(=O)(=O)C=C3N)C2O[Si](C)(C)C(C)(C)C)c(=O)n(CC2CO2)c1=O,IIIB,-,trypan blue,-,0.11 µM
Cc1cn([C@H]2C[C@H](F)[C@@H](CN)O2)c(=O)[nH]c1=O,-,-,-,-,>500 µM
O=C(N[C@@H](Cc1ccccc1)C(=O)N1CCC(=O)C1Sc1ccccc1)c1ccc2ccccc2n1,-,-,syncytia,-,>50 µM
CCOCn1c(Cc2ccccc2)c(C(C)C)c(=O)[nH]c1=O,IIIB,-,cytopathic effect / MTT,-,0.02 µM
O=C(NC(=S)NCCc1ccccc1Cl)c1csc(-c2ccccc2)n1,IIIB,-,MTT,-,>32.22 µM
CC(C)CN(C[C@@H](O)[C@H](Cc1ccccc1)NC(=O)O[C@H]1CO[C@H]2OCC[C@H]21)S(=O)(=O)c1ccc2nc(NC3CCN(C4CCCC4)CC3)sc2c1,LAI,-,reporter gene,-,0.0142 µM
CC(C)c1c(Cc2ccccc2)n(CCCCC(N)=O)c(=O)[nH]c1=O,IIIB,-,cytopathic effect / MTT,-,6.9 µM
CCc1c(Cc2cccc(Cc3[nH]c(=S)[nH]c(=O)c3CC)c2)[nH]c(=S)[nH]c1=O,-,-,cytopathic effect / MTT,-,>100 µM

Again, the opening 5 rows:

| structure | strain or isolate | mutations | method | conditions | value |
|---|---|---|---|---|---|
| Cc1cccc(C)c1CNC(=O)[C@H]1N(C(=O)[C@@H](O)C[C@@H](Cc2ccccc2)C(=O)N[C@H]2c3ccccc3OC[C@H]2O)COC1(C)C | NL4-3 | - | p24 | - | <0.5 µM |
| CC(C)(C)OC(=O)NCCNC(=O)c1cn([C@H]2CS[C@@H](COC(=O)c3ccccc3)O2)c(=O)[nH]c1=O | - | - | syncytia | - | >200 µM |
| OCCOCn1c(-c2ccccc2)c(Br)c(-c2ccccc2)c1-c1ccccc1 | - | - | cytopathic effect / MTT | - | >15 µM |
| CN1c2ccccc2C2C1C=C(C#N)C(=O)N2c1ccc([N+](=O)[O-])cc1 | B-HXB2 | - | GFP / fluorescence | - | 0.17 µM |
| Cc1cn([C@@H]2O[C@H](CO)[C@H](O)[C@H]2F)c(=O)[nH]c1=O | - | - | - | - | >500 µM |